Anti-infective test results gathered from many reports (values: NIAID ChemDB through PubChem).

All rows: whole-cell or culture tests; organism: HIV-1; read by: syncytia; endpoint: fold resistance

Blank or dashed fields: not listed here.

compound,strain,cell line,mutations,result
CCOCn1c(Cc2ccccc2)c(C(C)C)c(=O)[nH]c1=O,IIIB,CEM,RT-V106A,68
CCN1C(=O)N(Cc2ccccc2)S(=O)(=O)c2cscc21,-,CEM,RT-E138K,111
CC(C)Nc1cccnc1N1CCN(C(=O)c2cc3ccccc3[nH]2)CC1,Pyr(RT-Y181C),CEM,RT-Y181C,22.5
CCN1C(=O)N(Cc2ccccc2)S(=O)(=O)c2cscc21,IIIB,CEM,RT-K103N,>207
CC(C)=CCN1Cc2cc(Cl)cc3[nH]c(=S)n(c23)C[C@@H]1C,HXB2,CEM,RT-M41L T215Y,0.722
Nc1ncnc2c1ncn2CCOCP(=O)(O)O,IIIB,CEM,RT-E138K,0.824
O=C1N(Cc2ccccc2)c2cscc2S(=O)(=O)N1Cc1ccccc1,-,CEM,RT-Y181C,>5.78
Nc1cc(OCCOCP(=O)(O)O)nc(N)n1,Clinical isolate C20,CEM,RT-M41L D67N V118I M184V L210W T215Y,4.18
CC(C)Nc1cccnc1N1CCN(C(=O)c2cc3cc(NS(C)(=O)=O)ccc3[nH]2)CC1,HXB2,CEM,RT-M41L T215Y,1.3
Cc1cn([C@@H]2O[C@H](CO[Si](C)(C)C(C)(C)C)C3(OS(=O)(=O)C=C3N)[C@H]2O[Si](C)(C)C(C)(C)C)c(=O)n(C)c1=O,IIIB,CEM,RT-E138K,>2080
Nc1ncnc2c1ncn2CCOCP(=O)(O)O,Clinical isolate HA20.17,CEM,RT-A62V V75I F77L Q151M M184V,6
Cc1occc1C(=S)Nc1ccc(Cl)c(/C=N/OC(C)(C)C)c1,IIIB,CEM,RT-M184V,0.14
C#CCN1C(=O)N(Cc2ccccc2)S(=O)(=O)c2cscc21,IIIB,CEM,RT-L100I,1.18
CCOCn1c(Cc2cc(C)cc(C)c2)c(CC)c(=O)[nH]c1=O,IIIB TIBO R82913 STR-2 (RT K103N),CEM,RT-K103N,10
N#CCN1C(=O)N(Cc2ccccc2)S(=O)(=O)c2cscc21,IIIB,CEM,RT-Y181C,>250
CN1C(=O)N(Cc2ccccc2)S(=O)(=O)c2cscc21,ADP/141,MT-4,RT-D67N K70R T215F K219Q,0.69
O=c1[nH]cnc2c1ncn2[C@H]1CC[C@@H](CO)O1,IIIB,CEM,RT-E138K,3.26
CC(C)=CCN1Cc2cc(Cl)cc3[nH]c(=S)n(c23)C[C@@H]1C,IIIB nevirapine-resistant (RT Y181C),CEM,RT-Y181C,100
CN1C(=O)N(Cc2ccccc2)S(=O)(=O)c2cscc21,IIIB,CEM,RT-L100I,5.61
Cc1occc1C(=S)Nc1ccc(Cl)c(C(=O)OC2CCCC2)c1,IIIB,CEM,RT-L100I,34
Nc1nc2c(ncn2[C@H]2CC[C@@H](CO)O2)c(=O)[nH]1,IIIB TIBO R82913 STR-1 (RT L100I Y181C),CEM,RT-L100I Y181C,0.7
C[C@H](Cn1cnc2c(N)ncnc21)OCP(=O)(O)O,HHA-500SN (GP120-T90I T188N T236A N289K T297I S334N T341I N386D),CEM,gp120 T90I T188N T236A N289K T297I S334N T341I N386D,4.1
N#CCN1C(=O)N(Cc2cccc(F)c2)S(=O)(=O)c2cscc21,-,CEM,RT-K103N,47.5
Cc1cn([C@@H]2O[C@H](CO[Si](C)(C)C(C)(C)C)C3(OS(=O)(=O)C=C3N)[C@H]2O[Si](C)(C)C(C)(C)C)c(=O)n(C)c1=O,TIBO-2(RT-K103N),CEM,RT-K103N,5.75
CCn1c(=O)c(C)cn([C@@H]2O[C@H](CO[Si](C)(C)C(C)(C)C)C3(OS(=O)(=O)C=C3N)[C@H]2O[Si](C)(C)C(C)(C)C)c1=O,IIIB,CEM,RT-E138K,>889
Nc1ccn([C@H]2CC[C@@H](CO)O2)c(=O)n1,HXB2,CEM,RT-M41L T215Y,3.8
Nc1ccn([C@H]2CC[C@@H](CO)O2)c(=O)n1,IIIB,CEM,RT-E138K,0.8
CCn1c(=O)c(C)cn([C@@H]2O[C@H](CO[Si](C)(C)C(C)(C)C)C3(OS(=O)(=O)C=C3N)[C@H]2O[Si](C)(C)C(C)(C)C)c1=O,HXB2 (RT E138A S162C E169D T200A L214F) Clinical isolate,CEM,RT-E138A S162C E169D T200A L214F,>660
Cc1cn([C@@H]2O[C@H](CO[Si](C)(C)C(C)(C)C)[C@@]3(OS(=O)(=O)C=C3N)[C@H]2O[Si](C)(C)C(C)(C)C)c(=O)[nH]c1=O,IIIB,CEM,RT-E138K,124
Cc1c(N)nc(N)nc1OCCOCP(=O)(O)O,Clinical isolate L6.5,CEM,RT-S68G K70T V75I F77L K103N F116Y Q151M K219R,4.03
CC(C)=CCN1Cc2cccc3[nH]c(=S)n(c23)C[C@@H]1C,IIIB TIBO R82150-resistant (RT L100I),CEM,RT-L100I,≥250
Cc1cn([C@@H]2O[C@H](CO[Si](C)(C)C(C)(C)C)C3(OS(=O)(=O)C=C3N)[C@H]2O[Si](C)(C)C(C)(C)C)c(=O)n(C)c1=O,IIIB,CEM,RT-E138K,>662
Cc1cn([C@@H]2O[C@H](CO[Si](C)(C)C(C)(C)C)C3(OS(=O)(=O)C=C3N)[C@H]2O[Si](C)(C)C(C)(C)C)c(=O)n(C)c1=O,IIIB,CEM,RT-L100I,0.64
CC(=O)c1ccc(C)cc1NC(C(N)=O)c1c(Cl)cccc1Cl,HXB2 (RT E138A S162C E169D T200A L214F) Clinical isolate,CEM,RT-E138A S162C E169D T200A L214F,1
Nc1ccn([C@H]2CC[C@@H](CO)O2)c(=O)n1,IIIB TSAO-T(RT-E138K),CEM,RT-E138K,0.6
C[C@H](COc1cc(N)nc(N)n1)OCP(=O)(O)O,Clinical isolate HA20.17,CEM,RT-A62V V75I F77L Q151M M184V,2.35
CC(C)=CCN1Cc2cc(Cl)cc3[nH]c(=S)n(c23)C[C@@H]1C,HXB2 (RT E138A S162C E169D T200A L214F) Clinical isolate,CEM,RT-E138A S162C E169D T200A L214F,0.7
O=c1[nH]cnc2c1ncn2[C@H]1CC[C@@H](CO)O1,HXB2,CEM,RT-M41L T215Y,1.71
Cc1cc(C)cc(Sc2c(C(C)C)c(=O)[nH]c(=S)n2COCCO)c1,IIIB,CEM,RT-E138K,13.3

The last 5 rows once more:

compound	strain	cell line	mutations	result
Nc1ccn([C@H]2CC[C@@H](CO)O2)c(=O)n1	IIIB TSAO-T(RT-E138K)	CEM	RT-E138K	0.6
C[C@H](COc1cc(N)nc(N)n1)OCP(=O)(O)O	Clinical isolate HA20.17	CEM	RT-A62V V75I F77L Q151M M184V	2.35
CC(C)=CCN1Cc2cc(Cl)cc3[nH]c(=S)n(c23)C[C@@H]1C	HXB2 (RT E138A S162C E169D T200A L214F) Clinical isolate	CEM	RT-E138A S162C E169D T200A L214F	0.7
O=c1[nH]cnc2c1ncn2[C@H]1CC[C@@H](CO)O1	HXB2	CEM	RT-M41L T215Y	1.71
Cc1cc(C)cc(Sc2c(C(C)C)c(=O)[nH]c(=S)n2COCCO)c1	IIIB	CEM	RT-E138K	13.3

Fold resistance has wild type as its base. Conditions beyond the fields shown may differ between rows.